Reference: patent publication US20200298233A1, “MICROFLUIDIC PAPER CHIP FOR DETECTING MICRO-ORGANISM, METHOD FOR PREPARING THE SAME AND METHOD FOR DETECTING MICRO-ORGANISM USING THE SAME” (BIOMAX CO., LTD., priority 2017, published 2020)

What was measured:
[1] = test system: 5 food risk microorganisms; assay: Bacterial lysis efficacy by optical density, overall statements; type: cell-based
food risk microorganism = assay: Coloring reaction test for different concentrations of chromogenic reagent, microorganism not named at the place; type: biochemical; conditions: 30 minutes at 37° C.
Salmonella spp. [2] = assay: Coloring test of microfluidic paper chip; conditions: 5 μL loaded, 30 minutes at 37° C.
Escherichia coli = assay: Coloring test of microfluidic paper chip; conditions: 5 μL loaded, 30 minutes at 37° C.
Staphylococcus aureus = assay: Coloring reaction test of chromogenic reagents, 96 well plate; type: biochemical; conditions: 30 minutes at 37° C.
Salmonella spp. [3] = assay: as above; type: biochemical; conditions: 30 minutes at 37° C.

## CCCCCCCc1ccc(C(O)CC[N+](C)(C)CCCS(=O)(=O)[O-])cc1 (centres unmarked) [C7BzO, 3-[[3-(4-heptylphenyl)-3-hydroxypropyl]-dimethylazaniumyl]propane-1-sulfonate]
[1]; added to 1% (v/v) SB3-14, table 8
  C7BzO concentration at which lysis efficacy increased the most: 0.1 % (v/v)

## CCCCCCCC(=O)Oc1c[nH]c2cc(Cl)c(Br)cc12 [Magenta-caprylate, 5-Bromo-6-chloro-3-indoxyl caprylate]
Food risk microorganism
  final concentration showing a strong coloring reaction: 5 to 10 mM
  final concentration showing the strongest coloring reaction: 10 mM

## CCCCCCCCCCCCCC[N+](C)(C)CCCS(=O)(=O)[O-] [SB3-14]
[1]; tables 5 and 6, except for Vibrio vulnificus
  concentration at which the best bacterial lysis efficacy is expressed: 1%

## OC[C@H]1O[C@H](Oc2c[nH]c3cc(Cl)ccc23)[C@H](O)[C@@H](O)[C@@H]1O [Salmon-alpha-glucospyranoside, 6-Chloro-3-indoxyl-alpha-D-glucopyranoside]
Salmonella spp. [2]
  most preferable concentration of chromogenic reagent loaded on paper chip: 200 mM
  preferable concentration of chromogenic reagent loaded on paper chip: 25 to 300 mM

## O.O.O.O=C([O-])[C@H]1O[C@@H](Oc2c[nH]c3ccc(Br)c(Cl)c23)[C@H](O)[C@@H](O)[C@@H]1O.[Na+] [X-beta-glucuronide, 5-Bromo-4-chloro-3-indoxyl-beta-D-glucuronic acid Sodium salt trihydrate]
Food risk microorganism
  final concentration showing a strong coloring reaction: 5 to 10 mM
  final concentration showing the strongest coloring reaction: 10 mM
Escherichia coli
  most preferable concentration of chromogenic reagent loaded on paper chip: 100 mM
  preferable concentration of chromogenic reagent loaded on paper chip: 25 to 200 mM

## O=P([O-])([O-])Oc1c[nH]c2ccc(Br)c(Cl)c12.[Na+].[Na+] [X-phosphate, 5-Bromo-4-chloro-3-indoxyl phosphate, disodium salt]
Staphylococcus aureus
  final concentration showing a strong coloring reaction: 5 to 10 mM
Salmonella spp. [2]
  most preferable concentration of chromogenic reagent loaded on paper chip: 50 mM
  preferable concentration of chromogenic reagent loaded on paper chip: 25 to 100 mM
Salmonella spp. [3]
  final concentration showing a strong coloring reaction: 5 to 10 mM
  final concentration showing the strongest coloring reaction: 10 mM

## Aldol ® 518 myo-inositol-1-phosphate [Aldol-myo-inositol-1-phosphate]
Food risk microorganism
  final concentration showing a strong coloring reaction: 2 to 4 mM
  final concentration showing the strongest coloring reaction: 4 mM
